Anti-infective test results gathered from many reports (values: NIAID ChemDB through PubChem).

Common to all: target-level tests; species: HIV-1; protein: gp120; read-out: IC50

Neighbouring rows are from separate reports. a–b is a range or a potency band. ICn: concentration for n% inhibition. Blank or dashed fields: not listed here.

compound,setting,method,strain or isolate,result
NC(=O)[C@H](CCCN=C(N)N)NC(=O)[C@H](Cc1ccccc1)NC(=O)[C@@H](N)Cc1ccccc1,-,ELISA,-,550 µM
CC[C@H](C)[C@H](NC(=O)[C@@H](N)CC(N)=O)C(=O)N1CCC[C@H]1C(=O)N[C@@H](Cc1c[nH]c2ccccc12)C(=O)N[C@@H](CO)C(=O)N[C@@H](CCC(=O)O)C(=O)N[C@@H](C)C(=O)O,-,ELISA,HXB2,>500 µM
CCCCCCCCC[C@H]1CC2CCC3C(C(=O)OCCCCCCCCCC4N=C(N)N5CCCC5=C4C(=O)OCCCCN=C(N)N)[C@@H](C)N=C(N1)N23,-,-,-,10 µM
NC(=O)[C@H](CCCN=C(N)N)NC(=O)CNC(=O)[C@@H](N)Cc1ccccc1,-,ELISA,-,280 µM
CSCC[C@H](NS(=O)(=O)c1ccc(N2CCC(CCCC3CCN(S(=O)(=O)c4ccc(C(C)(C)C)cc4)CC3)CC2)c(Cl)c1)C(=O)O,-,fluorescence,-,1–10 µM
Cc1ncc(COP(=O)(O)O)c(C=O)c1O,-,binding,-,>100 µM
O=C(O)c1ccc(-c2c3nc(c(-c4ccc(C(=O)O)cc4)c4ccc([nH]4)c(-c4ccc(C(=O)O)cc4)c4nc(c(-c5ccc(C(=O)O)cc5)c5ccc2[nH]5)C=C4)C=C3)cc1,-,-,-,<60 µg/mL
CN1C(=O)C(c2cc(Cl)c(O)c(Cl)c2)NC(=O)[C@@H]2NC(=O)C(c3cc(Cl)c(O)c(Cl)c3)NC(=O)[C@H](NC(=O)C(=O)c3cc(Cl)c(O)c(Cl)c3)Cc3c[nH]c4c(cccc34)-c3cc2cc(c3O)Oc2ccc(cc2)CC1C(=O)NC(C(=O)O)c1ccc(O)cc1,-,-,-,2 µM
C=Cc1c(C)c2cc3[nH]c(cc4nc(cc5nc(cc1[nH]2)C(C)=C5CCC(=O)O)C(CCC(=O)O)=C4C)c(C)c3C=C,-,-,-,~60 µg/mL
COc1ccnc2[nH]cc(C(=O)C(=O)N3CCN(C(=O)c4ccccc4)C[C@H]3C)c12,-,-,-,~0.1 µM
COc1ccnc2[nH]cc(C(=O)C(=O)N3CCN(C(=O)c4ccccc4)C[C@H]3C)c12,-,-,-,0.1 µM
O=C(O)C[C@H]1C(=O)O[C@H]2[C@H](OC(=O)c3cc(O)c(O)c(O)c3)[C@@H](OC(=O)c3cc(O)c(O)c4c3[C@H]1[C@H](O)C(=O)O4)[C@H](OC(=O)c1cc(O)c(O)c(O)c1)O[C@@H]2COC(=O)c1cc(O)c(O)c(O)c1,-,fluorescence,-,0.2 µM
COc1ccnc2[nH]cc(C(=O)C(=O)N3CCN(C(=O)c4ccccc4)C[C@H]3C)c12,-,radiometric,ADA,>50 µM
COC(=O)C(=O)N1CCC[C@@H]1C(=O)N[C@H](Cc1ccccc1)C(=O)OCc1ccccc1,10% FBS,ELISA,-,>500 µM
CC(=O)Nc1ccc(SSc2ccc(NC(C)=O)cc2C(N)=O)c(C(N)=O)c1,-,-,-,>100 µM
C=Cc1c(C)c2cc3c(C=C)c(C)c(cc4nc(cc5nc(cc1[nH]2)C(C)=C5CCC(=O)O)C(CCC(=O)O)=C4C)n3C,-,-,-,<60 µg/mL
NC(=O)[C@H](CCCN=C(N)N)NC(=O)[C@H](CC(=O)O)NC(=O)[C@@H](N)Cc1ccccc1,-,ELISA,-,170 µM
O=C(O)[C@H](Cc1ccccc1)NS(=O)(=O)c1cnc(N2CCC(CCCCCC3CCN(S(=O)(=O)c4cc(Br)c(Cl)s4)CC3)CC2)c(Br)c1,-,fluorescence,-,<1 µM
Clc1ccc(CNc2ccccc2Cn2ccnc2)cc1,-,fluorescence,IIIB,<10 µg/mL
CC1(C)CC(NC(=O)C(=O)Nc2ccc(Br)cc2)CC(C)(C)N1,-,ELISA,IIIB,3.08 µM
CC(C)[C@H](NC(=O)[C@H](Cc1ccccc1)NC(=O)[C@@H](N)Cc1ccccc1)C(=O)N[C@@H](CCCN=C(N)N)C(N)=O,-,ELISA,-,920 µM
O=C(C(=O)N1CCN(C(=O)c2ccccc2)CC1)c1c[nH]c2ccccc12,-,ELISA,JR-FL,1.8 µM
NC(=O)c1ccc(C(NC(=O)c2ccc(C(NC(=O)c3ccc(C(=O)C(=O)O)cc3)(NC(=O)c3ccc(C(=O)C(=O)O)cc3)C(=O)O)cc2)(NC(=O)c2ccc(C(NC(=O)c3ccc(C(=O)C(=O)O)cc3)(NC(=O)c3ccc(C(=O)C(=O)O)cc3)C(=O)O)cc2)C(=O)O)cc1,-,antigen,-,2 µg/mL
C[C@@H](O)[C@H](NC(=O)[C@H](CC(=O)O)NC(=O)[C@H](Cc1c[nH]c2ccccc12)NC(=O)[C@@H]1CCCN1C(=O)[C@H](Cc1c[nH]c2ccccc12)NC(=O)[C@@H](N)CO)C(=O)N[C@@H](Cc1c[nH]c2ccccc12)C(=O)O,-,ELISA,SF2,21 µM
NC(=O)[C@H](CCCN=C(N)N)NC(=O)[C@H](Cc1ccccc1)NC(=O)[C@H](CO)NC(=O)[C@@H](N)Cc1ccccc1,-,ELISA,-,2990 µM
C=CC1=C(C)C2=NC1=CC1=NC(=Cc3[n-]c4c(c3C)=C([O-])[C@H](C(=O)OC)C=4C3=NC(=C2)[C@@H](C)[C@@H]3CCC(=O)OC/C=C(\C)CCCC(C)CCCC(C)CCCC(C)C)C(CC)=C1C.[Mg+2],-,-,-,>60 µg/mL
O=C(NCCCCC(NS(=O)(=O)c1cnc(N2CCC(CCCC3CCN(S(=O)(=O)c4cc(Br)c(Cl)s4)CC3)CC2)c(Br)c1)C(=O)O)OCc1ccccc1Cl,-,fluorescence,-,<1 µM
C=Cc1c(C)c2cc3[nH]c(cc4nc(cc5nc(cc1[nH]2)C(C)=C5CCC(=O)O)C(CCC(=O)O)=C4C)c(C)c3C=C,-,ELISA / binding,MN,~6.25 µM
C=CC1=C(C)C2=NC1=CC1=NC(=C(CC)/C1=C\[O-])C=c1[n-]c3c(c1C)C(=O)[C@H](C(=O)OC)C=3C1=NC(=C2)[C@@H](C)[C@@H]1CCC(=O)OC/C=C(\C)CCCC(C)CCCC(C)CCCC(C)C.[Mg+2],-,-,-,<60 µg/mL
O=C1OC(C2OC(=O)c3cc(O)c(O)c(O)c3-c3c(O)c(O)c4oc(=O)c5c(c(O)c(O)c6oc(=O)c3c4c65)-c3c(cc(O)c(O)c3O)C(=O)OCC2O)C2OC(=O)c3c(c(O)c(O)c(O)c3C2O)-c2c1cc(O)c(O)c2O,-,fluorescence,-,0.14 µM
O=C(O)[C@H](Cc1ccccc1)NS(=O)(=O)c1cnc(N2CCC(CCCCCCCC3CCN(S(=O)(=O)c4cc(Br)c(Cl)s4)CC3)CC2)c(Br)c1,-,fluorescence,-,<1 µM
CC1=C(CCC(=O)O)c2cc3nc(cc4[nH]c(cc5[nH]c(cc1n2)c(C)c5C(O)CO)c(C)c4C(O)CO)C(C)=C3CCC(=O)O,-,-,-,~60 µg/mL
O=C(O)CC1Cc2ccccc2CN1S(=O)(=O)c1cnc(N2CCC(CCCCC3CCN(S(=O)(=O)c4cc(Br)c(Cl)s4)CC3)CC2)c(Br)c1,-,fluorescence,-,1 µM
NC(=O)CC[C@H](NC(=O)[C@@H](N)Cc1ccccc1)C(=O)N[C@@H](CCCN=C(N)N)C(N)=O,-,ELISA,-,610 µM

For reference, 2 entries again:

{"compound": "O=C(O)[C@H](Cc1ccccc1)NS(=O)(=O)c1cnc(N2CCC(CCCCCCCC3CCN(S(=O)(=O)c4cc(Br)c(Cl)s4)CC3)CC2)c(Br)c1", "method": "fluorescence", "result": "<1 µM"}
{"compound": "CSCC[C@H](NS(=O)(=O)c1ccc(N2CCC(CCCC3CCN(S(=O)(=O)c4ccc(C(C)(C)C)cc4)CC3)CC2)c(Cl)c1)C(=O)O", "method": "fluorescence", "result": "1–10 µM"}